Anti-infective test results gathered from many reports (values: NIAID ChemDB through PubChem).

Shared fields: growth or infection tests; organism: Mycobacterium avium; measure: MIC

Conditions beyond the fields shown may differ between rows. An empty or dashed field is not shown.

smiles,conditions,strain,result
COc1cccc(CSc2nnn(-c3ccc(Cl)cc3)n2)c1,,CNCTC MY330/88,62.5 µM
CCn1cc(C(=O)O)c(=O)c2cc(F)c(N3CCN(C)CC3)cc21,,101,64 µg/mL
CC(C)c1ccc(NC(=S)c2cccc(Br)c2)cc1,,MY330/88,62.5 µM
CCOc1c(N2CCC(C(C)(C)N)C2)c(F)cc2c(=O)c(C(=O)O)cn(C3CC3)c12,,RG1,0.25 µg/mL
Cc1c(CN2CCSCC2)cc(-c2ccccc2)n1-c1ccccc1F,,,>16 µg/mL
FC(F)(F)C(F)(F)C(F)(F)C(F)(F)c1nc2c(Cl)cc(Cl)cc2[nH]1,,MY330/88,16 µM
CC(C)(C)n1cc(C(=O)O)c(=O)c2cc(F)c(N3CCNCC3)nc21,,SMD,2 µg/mL
CCCCCC(CC)OC(=O)c1cnc(Cl)cn1,,ATCC49601,32 µg/mL
CCCCOc1cccc(NC(=O)OCCN2CCCCC2)c1,,MY330/88,62.5 µM
FC(F)(F)C(F)(F)C(F)(F)c1nc2c(Br)cc(Br)cc2[nH]1,,MY330/88,32 µM
O=C(Nc1ccc(Cl)c(Cl)c1)c1ccccc1O,,CNCTC MY330/88,31 µM
COC(=O)c1cnccn1,,101,>256 µg/mL
CCCCc1ccc(NC(=S)c2ccccc2)cc1,,MY330/88,62.5 µM
CCCCOc1cccc(NC(=O)OC(COCC)CN2CCCCC2)c1,,MY330/88,62.5 µM
CN[C@@H]1[C@H](O[C@H]2[C@H](O[C@H]3[C@H](O)[C@@H](O)[C@H](N=C(N)N)[C@@H](O)[C@@H]3N=C(N)N)O[C@@H](C)[C@]2(O)C=O)O[C@@H](CO)[C@H](O)[C@H]1O,,S-141,12.5 µg/mL
O=C(Nc1cccc(Cn2ccnc2)c1)c1ccc(Cl)cc1,,103317,>16 µg/mL
FC(F)(F)C(F)(F)c1nc2c(Br)cc(Br)cc2[nH]1,,MY330/88,32 µM
CCCCS/C(N)=N/N=C/c1ccc2ccccc2n1,,CNCTC D5/93,32 µM
O=C(Nc1ccc(F)cc1)c1ccccc1O,,CNCTC MY330/88,31 µM
O=[N+]([O-])c1ccc(Sc2nc3c(Br)c(Br)c(Br)c(Br)c3[nH]2)cc1,,MY330/88,>250 µM
CCCCc1ccc(NC(=S)c2cccc([N+](=O)[O-])c2)cc1,,MY330/88,16 µM
CCCCCCCOc1ccccc1NC(=O)OCC[NH+]1CCCC1,,MY330/88,32 µM
c1ccc(CSc2nnn(-c3ccccc3)n2)cc1,,CNCTC MY330/88,32 µM
CCCCCCCCCC(O)CC(=O)CCc1ccc(O)c(OC)c1,,,25 µg/mL
FC(F)(F)C(F)(F)c1nc2c(Cl)cc(Cl)cc2[nH]1,,MY330/88,62.5 µM
CCCCCCOc1ccccc1NC(=O)OCC[NH+]1CCCC1,,MY330/88,62.5 µM
CC(C)(OC(=O)c1cnc(Cl)cn1)c1ccccc1,,101,256 µg/mL
O=C(Nc1cccc(Cl)c1)c1ncccc1O,,CNCTC MY330/88,32 µM
CCOc1ccc(NC(=S)Nc2ccc(OCC(C)C)cc2)cc1,,299,31.3 µg/mL
O=[N+]([O-])c1cc(Sc2nc3ccc(Br)cc3[nH]2)cc([N+](=O)[O-])c1,,MY330/88,32 µM
CC(=O)NC[C@H]1CN(c2ccc(N3CCSCC3)c(F)c2)C(=O)O1,,,1 µg/mL
O=C(Nc1ccccc1Cn1ccnc1)c1ccc(Cl)cc1,,103317,>16 µg/mL
CCCCCCCS/C(N)=N/N=C/c1ccc2ccccc2n1,,CNCTC MY66/72,4 µM
Cc1c(CN2CCN(C)CC2)cc(-c2cccc3ccccc23)n1-c1ccccc1,,,>16 µg/mL
O=C(NCc1ccccn1)c1cc(Br)ccc1O,14 d,ATCC 25291,250 µM
Cc1c(CN2CCSCC2)cc(-c2ccccc2)n1-c1cccc2ccccc12,,,>16 µg/mL
O=C(Nc1ccc(Cl)cc1)c1ncccc1O,,CNCTC MY330/88,32 µM
CC(C)c1ccc(NC(=S)c2ccccc2)cc1,,MY330/88,62.5 µM
COc1cccc(NC(=O)OCCN2CCCCC2)c1,,MY330/88,>1000 µM
CCCCCOc1cccc(NC(=O)OC(C)CN2CCCCC2)c1,,MY330/88,32 µM
CCCCCC(C)(CCCCC)OC(=O)c1cnc(Cl)cn1,,ATCC49601,>64 µg/mL
Cc1ccc(CSc2nnn(-c3ccc(C)cc3)n2)cc1,,CNCTC MY330/88,62.5 µM
CCS/C(N)=N/N=C/c1ccc2cc(Cl)ccc2n1,,CNCTC MY80/72,32 µM
COc1cccc(C(=O)NCc2cccnc2)c1O,14 d,ATCC 25291,1000 µM
CCS/C(N)=N/N=C/c1ccc2ccccc2n1.CCS/C(N)=N/N=C/c1ccc2ccccc2n1,,CNCTC MY80/72,63 µM
Clc1ccc(-n2nnc(SCc3ccccc3)n2)cc1,,CNCTC MY330/88,62.5 µM
CCC(C)S/C(N)=N/N=C/c1ccncc1,,CNCTC D5/93,250 µM
CCN(CC)C(=O)COc1cc2c(O)c3c(O)c(C)c4c(c13)C(=O)[C@@](C)(O/C=C/[C@H](OC)[C@@H](C)[C@@H](OC(C)=O)[C@H](C)[C@H](O)[C@H](C)[C@@H](O)[C@@H](C)/C=C/C=C(/C)C(=O)N2)O4,,,10 µg/mL
O=C(/C=C/c1ccccc1)Nc1cccc(CN2CCOCC2)c1,,103317,8 µg/mL
Cc1ccc(C(=O)NCc2ccccn2)c(O)c1,14 d,ATCC 25291,250 µM
Cc1c(F)c(N2CCNC(C)C2)cc2c1c(=O)c(C(=O)O)cn2C1CC1,,36-1,0.5 µg/mL
CCCCCOc1ccc(NC(=O)OCCN2CCOCC2)cc1,,MY330/88,62.5 µM
O=C(Nc1ccc(Cn2ccnc2)cc1)c1ccc(-c2ccccc2)cc1,,103317,>16 µg/mL
O=C(Nc1ccc(C(F)(F)F)cc1)c1ncccc1O,,CNCTC MY330/88,62.5 µM
CCN(CC)CCOc1ccc(NC(=S)Nc2ccc(OCC(C)C)cc2)cc1,,299,62.5 µg/mL
CCCOc1ccc(NC(=O)OCCN2CCCC2)cc1,,MY330/88,125 µM
CCS/C(N)=N/N=C/c1ccc2ccccc2n1,,CNCTC MY66/72,16 µM
Cc1ccc(NC(=O)c2ccccc2O)cc1,,CNCTC MY330/88,31 µM
O=[N+]([O-])c1cc(Sc2nc3c(Br)cc(Br)cc3[nH]2)cc([N+](=O)[O-])c1,,MY330/88,62.5 µM
O=C(O)c1cnc(Cl)cn1,,101,1024 µg/mL
CN[C@@H]1[C@H](O[C@H]2[C@H](O[C@H]3[C@H](O)[C@@H](O)[C@H](N=C(N)N)[C@@H](O)[C@@H]3N=C(N)N)O[C@@H](C)[C@]2(O)C=O)O[C@@H](CO)[C@H](O)[C@H]1O,,299,4 µg/mL
O=C(NCc1ccccn1)c1cc(Cl)ccc1O,21 d,ATCC 25291,250 µM
CC(C)c1c(O)cc([C@@H](N=C(N)N)C(=O)NCC(=O)O)cc1O,,S-141,25 µg/mL
Cc1c(CN2CCSCC2)cc(-c2ccc(F)cc2)n1-c1ccc(F)cc1,,,>16 µg/mL
O=C(Nc1ccc(Br)cc1)c1ccccc1O,,CNCTC MY330/88,31 µM

For reference, 4 entries again:

smiles,conditions,strain,result
Cc1c(CN2CCSCC2)cc(-c2ccc(F)cc2)n1-c1ccc(F)cc1,,,>16 µg/mL
O=C(Nc1ccc(F)cc1)c1ccccc1O,,CNCTC MY330/88,31 µM
COc1cccc(C(=O)NCc2cccnc2)c1O,14 d,ATCC 25291,1000 µM
c1ccc(CSc2nnn(-c3ccccc3)n2)cc1,,CNCTC MY330/88,32 µM